Anti-infective test results gathered from many reports (values: NIAID ChemDB through PubChem).

All rows: enzyme or target tests

Blank or dashed fields: not listed here. Neighbouring rows are from separate reports. Inhibition is in % at the dose shown (toxicity tests: loss of growth or viability). a–b is a range or a potency band. ICn is the concentration giving n% inhibition.

compound,strain or isolate,endpoint,read by,changes,protein,tested at,species,result
Cc1cc(NS(=O)(=O)c2ccc(N)cc2)no1,,Ki,,,DHPS,,Toxoplasma gondii,21 µM
NC(=NC1CCCC1)c1ccc(-c2ccc(-c3ccc(C(N)=NC4CCCC4)cc3)o2)cc1,,IC50,,,Ergosterol,,Pneumocystis carinii,38 µM
O=C(NCCNCc1ccc2ccccc2c1)c1ccc2nc(NC(=O)N3CCCCC3)sc2c1,,IC50,,,N-myristoyltransferase,,Candida albicans,>10 µM
COc1ccc(OC)c(NCc2csc3nc(N)nc(N)c23)c1,,inhibition,,,DHFR,10 µM,Toxoplasma gondii,<30%
CCCCCCCCCCCCCCCCN(C(=O)Nc1ccccc1)[C@@H](CC(=O)OCC)C1O[C@@H]2OC(C)(C)O[C@@H]2[C@H]1OC,,inhibition,,,Alpha-glucosidase,100 µM,Mycobacterium aurum,34.8%
C[C@@]1(O)[C@H](O)[C@@H](CO)O[C@H]1n1ccc(N)nc1=O,,Ki,,,RNA polymerase,,Bovine viral diarrhea virus,0.16 µM
Cc1cccc(-c2cncc(N3CCN(c4ccc(F)cc4)CC3)n2)c1,,IC50,,,UL97 kinase,,Cytomegalovirus,<100 µM
CC(C)(C)NC(=O)[C@@H]1CSCN1C(=O)[C@@H](O)[C@H](Cc1ccccc1)NC(=O)[C@H](CC(N)=O)NC(=O)COc1cccc2ccccc12,,inhibition,,,Protease,0.05 µM,HIV-1,91.3%
CCCCCCCCCCCCC/C=C/[C@@H](O)[C@H](CO[C@@H]1O[C@H](CO)[C@H](O)[C@H](OS(=O)(=O)O)[C@H]1O)NC(=O)CCCCCCCCCCCCCCCCCCCCCCC,Influenza A/Memphis/1/71 (H3N2),inhibition,,,Sialidase,200 µM,Influenza A virus,94.7%
C/C=C/c1cn([C@@H]2O[C@H](CO)[C@@H](O)[C@@H]2O)c(=O)[nH]c1=O,91075,inhibition,,,Thymidine kinase,5 µM,Herpes simplex virus 1,<0%
Nc1nc(N)c(CCCOc2ccc(NC(=O)c3cccc(S(=O)(=O)F)c3)cc2Cl)c(N)n1,TYPE I,IC50,,,Dihydrofolate reductase,,Cryptosporidium parvum,30 µM
COCC1=NO[C@H]2[C@@H]3OC(C)(C)O[C@@H]3O[C@@H]12,,IC50,,,Beta-galactosidase,,Aspergillus niger,>1000 µM
NNC(=O)c1ccncc1,H37RV (INH 10 ug/mL-R),inhibition,,,Isocitrate lyase,1000 µM,Mycobacterium tuberculosis,43%
COc1ccc(-c2cnc3c(C(=O)O)cnn3c2C2CCCCC2)c(C)c1,,IC50,,,RNA-dependent RNA polymerase,,Hepatitis C virus,1–10 µM
Clc1cc(CN2CCCNCCNCCCNCC2)cc(Cl)n1,,IC50,,CXCR4-D262N,CXCR4,,,0.57 µM
O=C(O)c1cc2nc(-c3ccc(Cl)cc3)c(-c3ccccc3)cn2n1,,IC50,,,RNA-dependent RNA polymerase,,Hepatitis C virus,>10 µM
Cc1cccc2nc(N[C@H](C)C(=O)OC(C)(C)C)oc(=O)c12,,IC50,,,Protease,,Human cytomegalovirus,1.8 µM
O=S(=O)(c1cccc2cnccc12)N1CCNCC1,,inhibition,nucleotide incorporation,,Protein kinase C,4 µg/mL,,40.5%
O=C(N[C@@H](Cc1ccccc1)C(=O)O)c1cnn2c(C3CCCCC3)c(-c3ccc(F)cc3)cnc12,,IC50,,,RNA-dependent RNA polymerase,,Hepatitis C virus,1–10 µM
C#C[C@H]1O[C@@H](n2cc(C)c(=O)[nH]c2=O)C[C@@H]1O,333,Ki,,,Thymidine kinase,,Herpes simplex virus 2,0.38 µM
C/C=C/c1cn([C@H]2C[C@H](O)[C@@H](CO)O2)c(=O)[nH]c1=O,C42,inhibition,,,Thymidine kinase,10 µM,Herpes simplex virus 1,68%
CC(C)CN=C(N)c1ccc(-c2ccc(-c3ccc(C(N)=NCC(C)C)cc3)o2)cc1,,IC50,,,Ergosterol,,Pneumocystis carinii,65 µM
Cc1c(-c2ccc(-c3ccc(OC(C)(C)C)cc3)nc2)[nH]c2ccccc2c1=O,,IC50,,,Cytochrome bc1,,Plasmodium falciparum,0.0151 µM
CC(C)(C(=O)c1cn2c(c(O)c1=O)C(=O)N(Cc1cccc(Cl)c1)CC2)c1ccccc1,,IC50,ELISA,,Integrase,,HIV-1,0.01–0.1 µM
O=C(CCNCc1ccc(-c2ccccc2)cc1)Nc1ccc2nc(NC(=O)C3CCCCC3)sc2c1,,IC50,,,N-myristoyltransferase,,Candida albicans,0.078 µM
Nc1nc2c(ncn2CC[C@@H](O)COP(=O)(O)OP(=O)(O)OP(=O)(O)O)c(=O)[nH]1,,IC50,,,DNA polymerase,,Varicella zoster virus,3.25 µM
O=C(Nc1nc2ccc(NC(=O)[C@H]3CCC[C@H](NCc4ccc5ccccc5c4)C3)cc2s1)C1CCCC1,,IC50,,,N-myristoyltransferase,,Candida albicans,0.034 µM
CC[C@@H](C)[C@H](NC(=O)[C@@H]1CCCN1C(=O)[C@@H](O)[C@H](CC1CCCCC1)NC(=O)[C@H](CC(N)=O)NC(=O)c1cnccn1)C(=O)N[C@H](C(N)=O)C(C)C,,inhibition,,,Protease,5 µM,HIV-1,93.8%
COc1c(N2CCNC(C)C2)c(F)cc2c(=O)c(C(=O)O)cn(C3CC3)c12,,IC50,,,Topoisomerase II,,Streptococcus pneumoniae,1.61 µg/mL
CCCCC/C=C\C/C=C/CC/C=C/[C@H]1C[C@H]([C@](O)(CC(=O)O[C@@H](C(=O)O)[C@H](CC(=O)O)C(=O)O)C(=O)O)C(=O)O1,,IC50,,,Geranylgeranyltransferase I,,Cryptococcus neoformans,3 µM
CC[C@@H](C)[C@H](NC(=O)[C@@H]1CCCN1C(=O)[C@@H](O)[C@H](CC1CCCCC1)NC(=O)[C@H](Cc1cnc[nH]1)NC(=O)CCc1ccccc1)C(=O)N[C@H](C(N)=O)C(C)C,,inhibition,,,Protease,5 µM,HIV-1,81.8%
Nc1ccc(S(=O)(=O)Nc2nccs2)cc1,,Ki,,,DHPS,,Toxoplasma gondii,1.9 µM
CN1CCN(c2cc3c(cc2F)c(=O)c(C(=O)O)cn3C2CC2)CC1,,IC50,,,Topoisomerase II,,Streptococcus pneumoniae,5.58 µg/mL
CCN(CC)CCOC(=O)c1ccc2nc(NC(=O)C3CCCCC3)sc2c1,,IC50,,,N-myristoyltransferase,,Candida albicans,1.5 µM
COc1cc(N2C(N)=NC(N)=NC2(C)C)c(OC)cc1Cl,,IC50,,,DHFR,,Pneumocystis carinii,>60 µM
COc1ccccc1-c1cc(-c2ccc(Cl)cc2)n2nc(C(=O)O)cc2n1,,IC50,,,RNA-dependent RNA polymerase,,Hepatitis C virus,>10 µM
CCOc1cccc2nc(N)nc(N)c12,,IC50,,,DHFR,,Toxoplasma gondii,8.7 µM
CC(C)(C)C(=O)OCOC(=O)c1cc2nc(-c3ccc(OCc4ccccc4)cc3)c(C3CCCCC3)c(=O)n2[nH]1,,IC50,,,RNA-dependent RNA polymerase,,Hepatitis C virus,>10 µM
Cc1c(Br)ccc2nc(N[C@H](C)c3ccccc3)oc(=O)c12,,IC50,,,Protease,,Human cytomegalovirus,0.32 µM
c1cc(-c2ccc(-c3ccc(C4=NC5CCCCC5N4)cc3)o2)ccc1C1=NC2CCCCC2N1,,IC50,,,Ergosterol,,Pneumocystis carinii,248 µM
CCc1nc2nc(N)nc(N)c2c2c1CCCC2,,IC50,,,DHFR,,Pneumocystis carinii,>30 µM
Cc1cccc2nc(N(C(=O)OCc3ccccc3)[C@@H](CCCCN)C(=O)OC(C)(C)C)oc(=O)c12,,IC50,,,Protease,,Human cytomegalovirus,1.5 µM
COc1c(N2CCNC(C)C2)ccc2c(=O)c(C(=O)O)cn(C3CC3)c12,,IC50,,,DNA gyrase,,Streptococcus pneumoniae,147 µg/mL
Nc1nc(N)c2cc(I)ccc2n1,,IC50,,,DHFR,,Pneumocystis carinii,1.6 µM
Cn1c2ccc(C3=NCCCN3)cc2c2cc(C3=NCCCN3)ccc21,,IC50,,,Ergosterol,,Pneumocystis carinii,147 µM
O=C(O)c1cc2nc(-c3ccc(Oc4ccccc4)cc3)cc(-c3ccccc3)n2n1,,IC50,,,RNA-dependent RNA polymerase,,Hepatitis C virus,>10 µM
O=c1[nH]c(=O)n([C@@H]2O[C@H](CO)[C@@H](O)[C@@H]2O)cc1/C=C/Br,91075,inhibition,,,Thymidine kinase,100 µM,Herpes simplex virus 1,14%
O=C(Cc1cccnc1)Nc1cn2ccn(Cc3cccc(Cl)c3)c(=O)c2c(O)c1=O,,IC50,ELISA,,Integrase,,HIV-1,<0.01 µM
CC(=O)N[C@H]1[C@H]([C@H](N)[C@H](O)CO)OC(C(=O)[O-])=C[C@@H]1O,TYPE 3,IC50,fluorescence,,Neuraminidase,,Parainfluenza virus,2100 µM
O=C(O)c1cc2nc(-c3ccc(Cl)cc3)cc(-c3ccccc3OCc3ccccc3)n2n1,,IC50,,,RNA-dependent RNA polymerase,,Hepatitis C virus,1–10 µM
Cn1c2ccccc2c(=O)c2c(O)cccc21,,inhibition,nucleotide incorporation,,Protein kinase C,0.8 µg/mL,,18%
NC1C=CN([C@@H]2O[C@H](COP(=O)(O)OP(=O)(O)OP(=O)(O)O)[C@@H](O)[C@@H]2O)C(=O)N1,,IC50,,,DNA polymerase,,Woodchuck hepatitis B virus,1.2 µM
C[C@H]1NCc2cc(-c3ccc4c(=O)c(C(=O)O)cn(C5CC5)c4c3OC(F)F)ccc21,,IC50,,,DNA gyrase,,Streptococcus pneumoniae,30.6 µg/mL
O=C(Nc1cn2ccn(Cc3cccc(Cl)c3)c(=O)c2c(O)c1=O)c1cccs1,,IC50,ELISA,,Integrase,,HIV-1,<0.01 µM
Nc1ccn([C@@H]2CS[C@H](COP(=O)(O)OP(=O)(O)OP(=O)(O)O)O2)c(=O)n1,,Ki,radiometric,RT-Q151M,Reverse transcriptase,,HIV,0.203 µM
COC(=O)[C@H](COCc1ccccc1)Nc1nc2ccc(NC(=O)OC(C)(C)C)c(C)c2c(=O)o1,,IC50,,,Protease,,Human cytomegalovirus,0.82 µM
COc1ccc(OC)c(N(C)Cc2csc3nc(N)nc(N)c23)c1,,inhibition,,,DHFR,10 µM,Toxoplasma gondii,<30%
CN(C)c1cccc2c(S(=O)(=O)Nc3ccc(NC(=O)C(C)(C)CO)cc3)cccc12,BAY-38-4766-resistant isolate,IC50,,,Terminase,,Mouse cytomegalovirus,28.3 µM
Cc1ccc2nc(N)nc(N)c2c1,,IC50,,,DHFR,,Pneumocystis carinii,20 µM
CCOC(=O)c1c(-c2ccc(C(N)=NC3CC3)cc2)oc(-c2ccc(C(N)=NC3CC3)cc2)c1C,,IC50,,,Ergosterol,,Pneumocystis carinii,117 µM
CC(Oc1ccc(-c2cnc3c(-c4nn[nH]n4)cnn3c2C2CCCCC2)cc1)c1cccc(C(F)(F)F)c1,,IC50,,,RNA-dependent RNA polymerase,,Hepatitis C virus,1–10 µM
COC(=O)C1=C[C@H](O)[C@@H](NC(=O)O)[C@H]([C@@H](O)[C@@H](O)CC#N)O1,,Ki,,,Neuraminidase,,Influenza A virus,~3000 µM
CC(=O)c1ccccc1-c1cncc(N2CCN(c3ccncc3)CC2)n1,,IC50,,,UL97 kinase,,Cytomegalovirus,<100 µM
Cc1c(NC(=O)OC(C)(C)C)ccc2nc(NC3(C(=O)O)CC3)oc(=O)c12,,IC50,,,Protease,,Human cytomegalovirus,9.4 µM

A second listing of 9 rows from above:

compound,strain or isolate,endpoint,read by,changes,protein,tested at,species,result
CC(=O)N[C@H]1[C@H]([C@H](N)[C@H](O)CO)OC(C(=O)[O-])=C[C@@H]1O,TYPE 3,IC50,fluorescence,,Neuraminidase,,Parainfluenza virus,2100 µM
CC(C)(C(=O)c1cn2c(c(O)c1=O)C(=O)N(Cc1cccc(Cl)c1)CC2)c1ccccc1,,IC50,ELISA,,Integrase,,HIV-1,0.01–0.1 µM
CC[C@@H](C)[C@H](NC(=O)[C@@H]1CCCN1C(=O)[C@@H](O)[C@H](CC1CCCCC1)NC(=O)[C@H](Cc1cnc[nH]1)NC(=O)CCc1ccccc1)C(=O)N[C@H](C(N)=O)C(C)C,,inhibition,,,Protease,5 µM,HIV-1,81.8%
O=C(CCNCc1ccc(-c2ccccc2)cc1)Nc1ccc2nc(NC(=O)C3CCCCC3)sc2c1,,IC50,,,N-myristoyltransferase,,Candida albicans,0.078 µM
O=C(O)c1cc2nc(-c3ccc(Cl)cc3)c(-c3ccccc3)cn2n1,,IC50,,,RNA-dependent RNA polymerase,,Hepatitis C virus,>10 µM
COc1c(N2CCNC(C)C2)c(F)cc2c(=O)c(C(=O)O)cn(C3CC3)c12,,IC50,,,Topoisomerase II,,Streptococcus pneumoniae,1.61 µg/mL
CCc1nc2nc(N)nc(N)c2c2c1CCCC2,,IC50,,,DHFR,,Pneumocystis carinii,>30 µM
CC(=O)c1ccccc1-c1cncc(N2CCN(c3ccncc3)CC2)n1,,IC50,,,UL97 kinase,,Cytomegalovirus,<100 µM
Cc1cccc(-c2cncc(N3CCN(c4ccc(F)cc4)CC3)n2)c1,,IC50,,,UL97 kinase,,Cytomegalovirus,<100 µM